A mixed list of measured activities; the numbers were collected in NIAID ChemDB.

Common to all: tests in culture; organism: Human cytomegalovirus; measure: EC50

Conditions beyond the fields shown may differ between rows.

smiles | strain or isolate | method | cells | result
N#Cc1cn([C@@H]2O[C@H](CO)C[C@H]2O)c2ncnc(N)c12 | - | plaque count | HFF | 0.6 µM
COc1cc(O)c2c(=O)cc(-c3ccc(OC)c(-c4c(O)cc(O)c5c(=O)cc(-c6ccc(O)cc6)oc45)c3)oc2c1 | TOWNE | plaque count | HeLa | 1.75 µg/mL
Nc1nc(NC2CC2)c2ncn(C=C3CC3CO)c2n1 | AD169 | plaque count | HFF | 2.4 µM
COc1ccc(-c2c3c(cc4cc5c(cc24)OCO5)C(=O)OC3)cc1OC | - | plaque count | - | 7.2 µM
O=C(NCCc1c[nH]c2ccccc12)C1=Cc2ccncc2CC1 | P8 | plaque count | MRC-5 | 0.3 µM
Nc1nc2c(ncn2[C@H]2C[C@@]23C[C@H]3CO)c(=O)[nH]1 | TOWNE | plaque count | HFF | >100 µM
CCOC(=O)C1=Cc2cc(OC)c(OC)c(OC)c2[C@@H](c2ccc(OC)c(OC)c2)[C@@H]1C(=O)OCC | - | plaque count | - | 22 µM
c1ccc(C2O[C@@H]2c2ccccc2)cc1 | TOWNE | virus yield | HEL | >50 µM
C[C@@H](O)C1=C[C@@H](n2cnc3c(N)ncnc32)[C@H](O)[C@@H]1O | AD-169 (20 PFU) | plaque count | HEL | 0.053 µg/mL
O=C1NC(=O)c2c1c1c3ccccc3[nH]c1c1c2c2ccccc2n1Cc1ccccc1 | - | - | VERO | >10 µM
O=c1[nH]c(=O)n([C@H]2C[C@H](O)[C@@H](COP3(=O)OCc4cc5ccccc5cc4O3)O2)cc1/C=C/Br | AD169 | plaque count | HELF | >128 µg/mL
C[C@H](O)C1=C[C@@H](n2cnc3c(N)ncnc32)[C@H](O)[C@@H]1O | AD-169 (20 PFU) | plaque count | HEL | 14.6 µg/mL
NC(=O)c1cn([C@@H]2O[C@H](CO)[C@H](O)[C@H]2O)c2ncnc(N)c12 | - | plaque count | HFF | 29 µM
Brc1nc(Br)c(Br)[nH]1 | - | plaque count | HFF | 27 µM
NC(=O)c1cn([C@@H]2O[C@H](CO)C[C@H]2O)c2ncnc(N)c12 | - | plaque count | HFF | 32 µM
CC1(Cn2cnc3c(N)nc(Cl)nc32)CC1CO | - | - | - | >100 µg/mL
Nc1nccc2c1ncn2[C@@H]1C=C(CO)[C@@H](O)[C@H]1O | DAVIS (100 PFU) | cytopathic effect | HEL | 0.18 µg/mL
Nc1ncnc2c1c(I)cn2[C@@H]1O[C@H](CO)[C@@H](O)[C@H]1O | - | plaque count | HFF | 0.5 µM
Cc1cccc2c1OP(=O)(OC[C@H]1O[C@@H](n3cc(/C=C/Br)c(=O)[nH]c3=O)C[C@@H]1OC(=O)[C@@H](N)CC(C)C)OC2 | AD169 | plaque count | HELF | >128 µg/mL
COC(=O)[C@H](C)NP(=O)(OC[C@@H]1C[C@]12C[C@@H]2n1cnc2c(N)ncnc21)Oc1ccccc1 | TOWNE | plaque count | HFF | 0.38 µM
CC1(C)CCC[C@@]2(C)[C@H]1CC[C@H]1C[C@@H]3CC12CC[C@]3(O)CO | - | plaque count | HFF | >500 µM
NC(=O)c1ncn([C@@H]2O[C@H](CO)[C@@H](O)[C@H]2O)n1 | AD-169 (20 PFU) | plaque count | HEL | >100 µg/mL
C/C(=N\NC(=S)NNC(=S)c1ccc(Cl)cc1)C12CC3CC(CC(C3)C1)C2 | AD169 | cytopathic effect | HEL | >5 µg/mL
NC(=O)c1cn([C@H]2C[C@H](O)[C@@H](CO)O2)c2ncnc(N)c12 | TOWNE | plaque count | HFF | 0.8 µM
Nc1nc2c(ncn2CC(CO)OCP(=O)(O)O)c(=O)[nH]1 | 2 strains | plaque count | HEL | 0.15 µg/mL
Nc1ncnc2c1ncn2[C@@H]1C[C@@H](O)[C@H](CO)O1 | - | - | HFF | >100 µM
Cc1cccc2c1OP(=O)(OC[C@H]1O[C@@H](n3cc(/C=C/Br)c(=O)[nH]c3=O)C[C@@H]1OC(=O)[C@H](N)C(C)C)OC2 | AD169 | plaque count | HELF | >128 µg/mL
N#Cc1c(Br)n(COC(CO)CO)c2ncnc(N)c12 | - | plaque count | HFF | >100 µM
C(=C\c1ccccc1)/c1ccccc1 | TOWNE | virus yield | HEL | >50 µM
Nc1ncnc2c1ncn2[C@@H]1C[C@@H](O)[C@H](CO)O1 | - | - | HFF | >100 µM
CCCC/C(O)=C(\C#N)C(=O)Nc1ccc(C(F)(F)F)cc1 | TOWNE | plaque count | HEL 299 | 1350–1970 µM
Nc1nc2c(ncn2[C@H]2C=C[C@@H](CO)CC2)c(=O)[nH]1 | LY9990 | plaque count | HEL | 0.79 µg/mL
CC1(Cn2cnc3c(=O)[nH]c(N)nc32)CC1CO | - | - | - | >100 µg/mL
COC(=O)[C@H](C)NP(=O)(OC[C@@H]1C[C@]12C[C@@H]2n1cnc2c(N)ncnc21)Oc1ccccc1 | - | plaque count | HFF | 0.38 µM
Nc1nc2c(ncn2[C@H]2C[C@]23C[C@@H]3CO)c(=O)[nH]1 | TOWNE | plaque count | HFF | >100 µM
Cc1cn(CC(CO)OCP(=O)(O)O)c(=O)[nH]c1=O | 2 strains | plaque count | HEL | 100 µg/mL
Nc1ncnc2c1ccn2[C@H]1CC[C@@H](CO)O1 | - | plaque count | HFF | >100 µM
Nc1nc2c(ncn2[C@H]2C[C@@]23C[C@@H]3CO)c(=O)[nH]1 | TOWNE | plaque count | HFF | >100 µM
Nc1ncc2ncn(CCOCP(=O)(O)O)c2n1 | 2 strains | plaque count | HEL | 200 µg/mL
NC(=S)c1c(N)n(COCCO)c2ncnc(N)c12 | - | plaque count | HFF | >100 µM
NC(=O)c1cn([C@@H]2O[C@H](CO)[C@@H](O)[C@@H]2O)c2ncnc(N)c12 | TOWNE | - | HFF | 3.6 µM
CCC(=O)O[C@H]1C[C@H](n2cc(/C=C/Br)c(=O)[nH]c2=O)O[C@@H]1COP1(=O)OCc2cccc(C)c2O1 | AD169 | plaque count | HELF | >64 µg/mL
Nc1nncc2c1c(Br)cn2[C@@H]1O[C@H](CO)[C@@H](O)[C@H]1O | TOWNE | virus yield | HFF | <2.2 µM
CCCCCCCCCC(=O)O[C@H]1C[C@H](n2cc(/C=C/Br)c(=O)[nH]c2=O)O[C@@H]1COP1(=O)OCc2cccc(C)c2O1 | AD169 | plaque count | HELF | >64 µg/mL
Nc1ncnc2c1c(Br)cn2[C@H]1CC[C@@H](CO)O1 | - | plaque count | HFF | 6.2 µM
CC1(C)OC[C@]2(C)[C@@H](CC[C@@]3(C)[C@H]2CC[C@H]2C[C@@H]4CC23CC[C@]4(O)CO)O1 | - | plaque count | HFF | >500 µM
Cc1cn([C@@H]2C[C@@H](O)[C@H](CO)O2)c(=O)[nH]c1=O | - | - | HFF | >100 µM
NC(=O)c1c(N)n(COC(CO)CO)c2ncnc(N)c12 | - | plaque count | HFF | >100 µM
COc1cc2cc3c(c(-c4ccc5c(c4)OCO5)c2c(OC)c1OC)C(=O)OC3 | - | plaque count | - | 1.4 µM
NC(=O)c1c(N)n(COCCO)c2ncnc(N)c12 | - | plaque count | HFF | >100 µM
Nc1nc2c(ncn2[C@@H]2C=C[C@H](CO)CC2)c(=O)[nH]1 | LY9990 | plaque count | HEL | 0.38 µg/mL
NC(=S)c1c(N)n([C@@H]2O[C@H](CO)[C@@H](O)[C@H]2O)c2ncnc(N)c12 | - | plaque count | HFF | 0.4 µM
NC(=O)c1cn(COCCO)c2ncnc(N)c12 | - | plaque count | HFF | >320 µM
CC/C(=C(/CC)c1ccc(O)cc1)c1ccc(O)cc1 | TOWNE | virus yield | HEL | >30 µM
NC(=O)c1c(Br)n(COC(CO)CO)c2ncnc(N)c12 | - | plaque count | HFF | >100 µM
NC(=O)c1cn([C@@H]2O[C@H](CO)[C@@H](O)[C@@H]2O)c2ncnc(N)c12 | - | plaque count | HFF | 0.8 µM
N[C@H](c1ccccc1)[C@H](N)c1ccccc1 | TOWNE | virus yield | HEL | >50 µM
COC(=O)[C@H](C)NP(=O)(OCC1C/C1=C/n1cnc2c(N)ncnc21)Oc1ccccc1 | TOWNE | plaque count | HFF | 0.14 µM
C(=C/c1ccccc1)/c1ccccc1 | TOWNE | virus yield | HEL | >50 µM
COC(=O)[C@H](C)NP(=O)(OC[C@H]1C/C1=C\n1cnc2c(=O)[nH]c(N)nc21)Oc1ccccc1 | TOWNE | plaque count | HFF | >100 µM
O=c1[nH]c(=O)n([C@H]2C[C@H](O)[C@@H](COP3(=O)OCc4c(Cl)cccc4O3)O2)cc1/C=C/Br | AD169 | plaque count | HELF | >128 µg/mL
Nc1ncnc2c1ccn2[C@@H]1O[C@H](CO)[C@@H](O)[C@@H]1O | TOWNE | - | HFF | >100 µM
Cc1cccc2c1OP(=O)(OC[C@H]1O[C@@H](n3cc(/C=C/Br)c(=O)[nH]c3=O)C[C@@H]1OC(=O)[C@H](N)CC(C)C)OC2 | AD169 | plaque count | HELF | >128 µg/mL
NC(=S)c1c(N)n(COC(CO)CO)c2ncnc(N)c12 | - | plaque count | HFF | >100 µM
C[C@]1(CO)C2CCC3CC4CC3(CC[C@]4(O)CO)[C@@]2(C)CC[C@H]1O | - | plaque count | HFF | >500 µM
O=c1[nH]cnc2c1ncn2CCOCP(=O)(O)O | 2 strains | plaque count | HEL | 200 µg/mL
Nc1ncnc2c1ncn2[C@H]1C[C@]12C[C@@H]2CO | TOWNE | plaque count | HFF | 28 µM

Repeating the final 8 entries:

smiles	strain or isolate	method	cells	result
COC(=O)[C@H](C)NP(=O)(OC[C@H]1C/C1=C\n1cnc2c(=O)[nH]c(N)nc21)Oc1ccccc1	TOWNE	plaque count	HFF	>100 µM
O=c1[nH]c(=O)n([C@H]2C[C@H](O)[C@@H](COP3(=O)OCc4c(Cl)cccc4O3)O2)cc1/C=C/Br	AD169	plaque count	HELF	>128 µg/mL
Nc1ncnc2c1ccn2[C@@H]1O[C@H](CO)[C@@H](O)[C@@H]1O	TOWNE	-	HFF	>100 µM
Cc1cccc2c1OP(=O)(OC[C@H]1O[C@@H](n3cc(/C=C/Br)c(=O)[nH]c3=O)C[C@@H]1OC(=O)[C@H](N)CC(C)C)OC2	AD169	plaque count	HELF	>128 µg/mL
NC(=S)c1c(N)n(COC(CO)CO)c2ncnc(N)c12	-	plaque count	HFF	>100 µM
C[C@]1(CO)C2CCC3CC4CC3(CC[C@]4(O)CO)[C@@]2(C)CC[C@H]1O	-	plaque count	HFF	>500 µM
O=c1[nH]cnc2c1ncn2CCOCP(=O)(O)O	2 strains	plaque count	HEL	200 µg/mL
Nc1ncnc2c1ncn2[C@H]1C[C@]12C[C@@H]2CO	TOWNE	plaque count	HFF	28 µM

An empty or dashed field is not shown. a–b is a range or a potency band. ECn: concentration that inhibits the pathogen or its effect by n%.